Test results from paper PMC9493007.

Tested on: Nc1ncnc2c1ncn2[C@@H]1O[C@H](COP(=O)(O)OP(=O)(O)OP(=O)(O)O)[C@@H](O)[C@H]1O
Experiment: purified protein
Details: 20 mM Tris pH 8.0, 100 mM NaCl, 10 mM MgCl2, 1 mM DTT, 0.025% BSA, 5% glycerol, 10 µM protein, Hill fit, unit not given, taken from the YsaN value

Q: For “YsaN∆83 (Yersinia enterocolitica subsp. enterocolitica 8081)”, which K0.5 is on record?
A: The K0.5 was 467.3 ± 30.15 µM.
